Pooled drug test results. Numbers come from NIAID ChemDB, via PubChem.

Shared fields: tests in culture; agent: Mycobacterium tuberculosis

MIC50, MIC90 and the like: level of inhibition, or share of isolates inhibited.

compound	read by	dose	mutations	strain or isolate	read-out	result
CO[C@H]1/C=C/O[C@@]2(C)Oc3c(C)c(O)c4c(O)c(c(/C=N/N5CCN(C)CC5)c(O)c4c3C2=O)NC(=O)/C(C)=C\C=C\[C@H](C)[C@H](O)[C@@H](C)[C@@H](O)[C@@H](C)[C@H](OC(C)=O)[C@@H]1C				8S	MIC	1 µg/mL
CCCCC(CC)CN1CN(CC(CC)CCCC)CC(C)(NCCN[C@@H](COC)[C@@H](O)c2ccccc2)C1					MIC	25 µM
COc1ccc(CC(=O)c2c(O)c3c(c(CC=C(C)C)c2OC)OC(C)(C)C=C3)cc1	BACTEC			H37Rv	MIC	≥128 µg/mL
C=C(NC(=O)c1csc(-c2nc3c(cc2O)-c2nc(cs2)C(=O)N[C@@H]([C@@H](C)O)C(=O)N/C(=C(\C)OC)c2nc(cs2)C(=O)N[C@@H]2c4nc(cs4)C(=O)N[C@@H](COC(=O)c4c5c6c(cccc6n4O)COC(=O)[C@@H](O[C@H]4C[C@]6(C)OCN(C)[C@@H]6[C@H](C)O4)[C@H]2OC5)c2nc-3cs2)n1)C(N)=O	broth dilution			H37Rv	MIC	≤10 µM
CC(C)(C)c1ccc(CSc2nc(=O)[nH]c3nc[nH]c23)cc1				H37Rv	MIC90	>6.25 µg/mL
COc1cc(/C=C/C(=O)O)ccc1O				H37Rv	MIC	>100 µg/mL
CCc1nc2ccc(C)cc2n1CCCCNc1ccccc1	turbidity / fluorescence		QcrB M342T	H37Rv	fold resistance	41
CC(=O)NC[C@H]1CN(c2ccc(N3CCOCC3)c(F)c2)C(=O)O1				9S	MIC	0.5 µg/mL
NC(N)=S				H37Rv	MIC	>100 µg/mL
N#Cc1ccc(-n2c(=O)oc3ccccc3c2=O)cc1				CNCTC MY331/88	MIC	32 µM
COc1ccccc1CCNCCNCCc1ccc(OC)c(OC)c1					MIC	50 µM
Nc1ccccc1Cl				H37Rv	MIC	>100 µg/mL
Clc1ccc(CCNCCNCC(c2ccccc2)c2ccccc2)c(Cl)c1					MIC	6.25 µM
COc1ccccc1Sc1ccncc1				H37Rv	MIC90	>6.25 µg/mL
CN1c2ccccc2CCC1CCc1ccc2c(c1)OCO2				MT9	MIC	>100 µg/mL
CCCCC(CC)CN1CN(CC(CC)CCCC)CC(C)(NCCNCCC)C1					MIC	6.25 µM
COc1ccccc1CSc1nc(=O)[nH]c2nc[nH]c12				H37Ra	MIC	>12.8 µg/mL
C=C(NC(=O)c1csc(-c2nc3c(cc2O)-c2nc(cs2)C(=O)N[C@@H]([C@@H](C)O)C(=O)N/C(=C(\C)OC)c2nc(cs2)C(=O)N[C@@H]2c4nc(cs4)C(=O)N[C@@H](COC(=O)c4c5c6c(cccc6n4O)COC(=O)[C@@H](O[C@H]4C[C@](C)(O)[C@H](N(C)C)[C@H](C)O4)[C@H]2OC5)c2nc-3cs2)n1)C(N)=O	broth dilution		Rifampicin- and isoniazid-resistant	Clinical isolate 1868	MIC	≤25 µM
FC(F)(F)Oc1ccc(CNCCNC2C3CC4CC(C3)CC2C4)cc1					MIC	12.5 µM
COc1cccc(CSc2ccncc2)c1		6.25 µg/mL		H37Rv	inhibition	6%
COc1ccc(-n2c(=O)oc3cc(OC)ccc3c2=O)cc1				CNCTC MY331/88	MIC	16 µM
NCC[C@H](O)C(=O)N[C@@H]1C[C@H](N)[C@@H](O[C@H]2O[C@H](CN)[C@@H](O)[C@H](O)[C@H]2O)[C@H](O)[C@H]1O[C@H]1O[C@H](CO)[C@@H](O)[C@H](N)[C@H]1O				TN718 (AY)	MIC	64 µg/mL
CC[C@H]1OC(=O)[C@H](C)[C@@H](O[C@H]2C[C@@](C)(OC)[C@@H](O)[C@H](C)O2)[C@H](C)[C@@H](O[C@@H]2O[C@H](C)C[C@H](N(C)C)[C@H]2O)[C@](C)(O)C[C@@H](C)CN(C)[C@H](C)[C@@H](O)[C@]1(C)O				ATCC35838	MIC	>8 µg/mL
CC(C)CCC[C@@H](C)[C@H]1CC[C@H]2[C@@H]3CC[C@H]4C[C@@H](CCC=C(c5cc(Cl)c(O)c(C(=O)O)c5)c5cc(Cl)c(O)c(C(=O)O)c5)CC[C@]4(C)[C@H]3CC[C@]12C	BACTEC	12.5 µg/mL		H37Rv	inhibition	12%
O=C(/C=C/c1ccccc1[O-])/C=C/c1ccccc1[O-].[Na+].[Na+]				H37Rv	MIC	>100 µg/mL
Clc1cccc(Sc2nc(Cl)nc3nc[nH]c23)c1		6.25 µg/mL		H37Rv	inhibition	0%
OCc1ccccc1Sc1ccccc1CNCCNCC1(O)CCCCC1					MIC	50 µM
Cc1cc(O)c(C=O)c2c1C(=O)Oc1c(CO)c(O)c3c(c1O2)C(O)OC3=O	BACTEC			H37Rv	MIC bound	>12.8 µg/mL
C1CCC2C(C1)CCCN2CCNCC12CC3CC(CC(C3)C1)C2					MIC	18.8 µM
OCCOc1ccc(Cl)cc1				H37Rv	MIC	100 µg/mL
COc1cccc(Sc2ncccn2)c1				H37Ra	MIC	>12.8 µg/mL
CCCCC(CC)CN1CN(CC(CC)CCCC)CC(C)(NCCNCCOC)C1					MIC	6.25 µM
O=C(O)COc1c(Cl)cc(Cl)cc1Cl				H37Rv	MIC	>100 µg/mL
CO[C@H]1/C=C/O[C@@]2(C)Oc3c(C)c(O)c4c(O)c(c(/C=N/N5CCN(C)CC5)c(O)c4c3C2=O)NC(=O)/C(C)=C\C=C\[C@H](C)[C@H](O)[C@@H](C)[C@@H](O)[C@@H](C)[C@H](OC(C)=O)[C@@H]1C	broth dilution			Clinical isolate 12556	MIC	≤0.1 µM
CC1COc2c(N3CCN(C)CC3)c(F)cc3c(=O)c(C(=O)O)cn1c23				ATCC35838	MIC	0.25 µg/mL
O=[N+]([O-])c1c(Sc2ccc(Cl)cc2)ccc2ncccc12				H37Rv	MIC	>100 µg/mL
CC(CNC[C@@H]1CC[C@H]2C[C@@H]1C2(C)C)NC1CCCCCCC1					MIC	25 µM
CCCCCCCCCCCNCCNN1CCCC1					MIC	50 µM
CCC(C)(C)NCCNCc1ccc(C(F)(F)F)cc1					MIC	25 µM
CCCCCCCCCCCCCCCCOc1ccc(S(=O)(=O)Nc2cc(C(=O)OC)cc(C(=O)OC)c2)cc1[N+](=O)[O-]	BACTEC	12.5 µg/mL		H37Rv	inhibition	4%
CCc1cc(C(N)=O)c2ccccc2n1				H37Rv	MIC	>100 µg/mL
COc1ccc(CNCCNCCC2=CCCCC2)c(OC)c1					MIC	50 µM
CCOC(=O)c1ccc(-n2c(=O)oc3cc(C)ccc3c2=O)cc1				CNCTC MY331/88	MIC	8 µM
Oc1ccc(N=C2N=c3c(c4ccccc4c4ccccc34)=N2)c2ccccc12	resazurin			H37Rv	MIC	>6.25 µg/mL
Cc1ccnc(N)n1				H37Rv	MIC	>100 µg/mL
CCCCCCCCCCCNCCNC[C@@H](C)O					MIC	50 µM
CCc1nc2ccc(C)cc2n1CCCNc1ccc(C)cc1C	turbidity / fluorescence			H37Rv	MIC99	0.07 µM
O=C(Nc1ccccc1C(=O)O)c1ccccc1O				H37Rv	MIC	>100 µg/mL
COc1cccc2c1C(=O)c1c(O)c3c(c(O)c1C2=O)C[C@@](O)(/C(C)=N/NC(N)=O)CC3OC1CC(N)C(O)C(C)O1.Cl				PAS-R	MIC	6.3 µg/mL
NNC(=O)c1ccncc1	broth dilution		Isoniazid-resistant	Clinical isolate 9139	MIC	≤10 µM
Nc1ccccc1				H37Rv	MIC	>100 µg/mL
CCCCCc1cc(OC)c2ccccc2n1				MT6	MIC	21 µg/mL
C=Cc1c(C)c(O)cc2c1-c1ccc(O)c(C)c1CC2	BACTEC	12.5 µg/mL		H37Rv	inhibition	70%
C[C@@H]1CN(c2c(F)c(N)c3c(=O)c(C(=O)O)cn(C4CC4)c3c2F)C[C@H](C)N1				ATCC35838	MIC	0.03 µg/mL
O=C(Nc1ccc(Cl)cc1)Nc1nnc2nc(C(C(=O)c3ccsc3)c3nc4nnc(NC(=O)Nc5ccc(Cl)cc5)n4[nH]c3=O)c(=O)[nH]n12	BACTEC			H37Rv	MIC bound	>12.5 µg/mL
Nc1ccc(N)c2c1C(=O)c1ccccc1C2=O				H37Rv	MIC	100 µg/mL
Cc1ccc2oc(=O)n(-c3ccc(Br)cc3)c(=O)c2c1				CNCTC MY331/88	MIC	16 µM
CC(C)=CCC/C(C)=C/CNCCN[C@@H]1C[C@@H]2C[C@H]([C@H]1C)C2(C)C					MIC	25 µM
c1cc[c]([Sn]([c]2ccccc2)([c]2ccccc2)[c]2ccccc2)cc1				H37Rv	MIC	100 µg/mL
CN(C)CCC(=O)C(=Cc1ccco1)C(=O)CCN(C)C	resazurin	6.25 µg/mL		H37Rv	inhibition	2%
CO/C(C)=C1/NC(=O)[C@H]([C@@H](C)O)NC(=O)c2csc(n2)-c2cc(O)c(-c3nc(C(=O)NCCCN4CCOCC4)cs3)nc2-c2csc(n2)[C@@H]2COC(=O)c3c4c5c(cccc5n3O)COC(=O)[C@@H](O[C@H]3C[C@](C)(O)[C@H](N(C)C)[C@H](C)O3)[C@@H](OC4)[C@H](NC(=O)c3csc1n3)c1nc(cs1)C(=O)N2	broth dilution			Clinical isolate 13923	MIC	≤25 µM
CN(C)[C@@H]1C(=O)C(C(=O)NCN2CCCC2)=C(O)[C@@]2(O)C(=O)C3=C(O)c4c(O)cccc4[C@@](C)(O)[C@H]3C[C@@H]12	BACTEC	12.5 µg/mL		H37Rv	inhibition	24%
COc1cccc(CNCCNC[C@]2(C)CCC[C@]3(C)c4ccc(C(C)C)cc4CC[C@@H]23)c1OC					MIC	25 µM
CCOC(=O)c1cc(=O)[nH]c(N)n1	BACTEC			H37Rv	MIC bound	>12.5 µg/mL
CCc1nc2ccccc2n1CCCCOc1ccc(Cl)cc1C	turbidity / fluorescence		QcrB M342T	H37Rv	fold resistance	>7.7
CCCCCCCCCCCCCCCC(=O)OCC1OC(CO)(OC2OC(CO)C(O)C(O)C2O)C(O)C1O	BACTEC			H37Rv	MIC bound	>12.5 µg/mL
CCCCC(=O)O				H37Rv	MIC	>100 µg/mL
CC(C)c1ccc2c(c1)CC[C@H]1[C@](C)(CNCCNC3CCCC3)CCC[C@]21C					MIC	25 µM
NNC(=O)C1=CN(Cc2ccccc2)C=CC1	BACTEC			H37Rv	MIC bound	>12.5 µg/mL
COc1ccc(-n2c(O)c3ccccc3cc2=O)cc1				H37Rv	MIC	>100 µg/mL
NC1CCN(c2c(F)cc3c(=O)c(C(=O)O)cn(C4CC4)c3c2Cl)C1				ATCC 35826	MIC	0.06 µg/mL
CC(=O)CC(C)(C)N.O=C(O)C(=O)O				H37Rv	MIC	>100 µg/mL
CCc1nc2ccc(C)cc2n1CCCSc1ccc(OC)cc1	turbidity / fluorescence		Rv1339 V90M	H37Rv	MIC90	6.8 µM
COc1ccc2ccccc2c1C(C)=O				H37Rv	MIC	50 µg/mL
O=c1oc2c(-c3ccccc3)n[nH]c(=O)c2c2c1CCCC2	BACTEC			H37Rv	MIC bound	>12.5 µg/mL
COc1cccc(CSc2ncccn2)c1				H37Rv	MIC90	>6.25 µg/mL
C[n+]1cccc2c(=O)c3ccccc3oc21	BACTEC	12.5 µg/mL		H37Rv	inhibition	0%
CC1CN(c2cc3c(cc2F)c(=O)c(C(=O)O)cn3-c2ccc(F)cc2F)CCN1				Drug-resistant	MBC90	4 µg/mL
c1ccc([Si]2(c3ccccc3)[Si](c3ccccc3)(c3ccccc3)[Si](c3ccccc3)(c3ccccc3)[Si]2(c2ccccc2)c2ccccc2)cc1	BACTEC			H37Rv	MIC	≥12.5 µg/mL
c1ccc(CSc2ccncc2)cc1		6.25 µg/mL		H37Rv	inhibition	22%
Nc1ncnc2c1Sc1nc(Cl)ccc1N2	BACTEC	12.5 µg/mL		H37Rv	inhibition	-3%
NC(CSCC(=O)O)C(=O)O				H37Rv	MIC	>100 µg/mL
Cn1c(=O)c2nc3c4ccccc4c(=O)n(C)c3nc2n(C)c1=O	BACTEC			H37Rv	MIC bound	>12.5 µg/mL
FC(F)(F)c1ccc(CNCCNCCN2CCOCC2)cc1					MIC	50 µM
C/C=C/C=C1\C=Cc2c(C(=O)OC)coc(=O)c21	BACTEC			H37Rv	MIC bound	>12.5 µg/mL
CCOC(=O)C(C)C(O)c1ccccc1				H37Rv	MIC	50 µg/mL
c1ccc2c(c1)sc1nc3ccncc3nc12	resazurin			H37Rv	MIC bound	>6.25 µg/mL
Nc1ccc(C(=O)Nc2ccc3ccccc3c2)cc1				H37Rv	MIC	100 µg/mL

For reference, 8 entries again:

compound | read by | dose | mutations | strain or isolate | read-out | result
CCCCC(CC)CN1CN(CC(CC)CCCC)CC(C)(NCCNCCOC)C1 |  |  |  |  | MIC | 6.25 µM
CC(CNC[C@@H]1CC[C@H]2C[C@@H]1C2(C)C)NC1CCCCCCC1 |  |  |  |  | MIC | 25 µM
CCc1nc2ccc(C)cc2n1CCCNc1ccc(C)cc1C | turbidity / fluorescence |  |  | H37Rv | MIC99 | 0.07 µM
C=Cc1c(C)c(O)cc2c1-c1ccc(O)c(C)c1CC2 | BACTEC | 12.5 µg/mL |  | H37Rv | inhibition | 70%
FC(F)(F)Oc1ccc(CNCCNC2C3CC4CC(C3)CC2C4)cc1 |  |  |  |  | MIC | 12.5 µM
CC(C)CCC[C@@H](C)[C@H]1CC[C@H]2[C@@H]3CC[C@H]4C[C@@H](CCC=C(c5cc(Cl)c(O)c(C(=O)O)c5)c5cc(Cl)c(O)c(C(=O)O)c5)CC[C@]4(C)[C@H]3CC[C@]12C | BACTEC | 12.5 µg/mL |  | H37Rv | inhibition | 12%
CC(=O)CC(C)(C)N.O=C(O)C(=O)O |  |  |  | H37Rv | MIC | >100 µg/mL
O=[N+]([O-])c1c(Sc2ccc(Cl)cc2)ccc2ncccc12 |  |  |  | H37Rv | MIC | >100 µg/mL

MIC bound comes from a single tested concentration. Fold resistance has wild type as its base. An empty or dashed field is not shown. Inhibition is in % at the dose shown (toxicity tests: loss of growth or viability). Conditions beyond the fields shown may differ between rows.